Data as given in patent EP4846849A2, “FUNGICIDAL COMPOSITIONS COMPRISING AZOLES” (dated 2026).

Tests used:
Pyrenophora teres = test: Microtiterplate test, activity against Pyrenophora teres; conditions: compound alone, 7 days after inoculation
Alternaria solani = test: Microtiterplate test, activity against Alternaria solani; conditions: compound alone, 7 days after inoculation
Sclerotinia sclerotiorum = test: Microtiterplate test, activity against Sclerotinia sclerotiorum; conditions: compound alone, 7 days after inoculation
[1] = tested on: Colletotrichum orbiculare; test: Microtiterplate test, activity against Colletotrichum orbiculare; conditions: compound alone, 7 days after inoculation
Cercospora zea maydis = test: Microtiterplate test, activity against Cercospora zea maydis; conditions: compound alone, 7 days after inoculation
Cercospora sojina = test: Microtiterplate test, activity against Cercospora sojina; conditions: 0.25 ppm, compound alone; 7 days after inoculation

C[C@@H]1CC(C)(C)c2cccc(NC(=O)c3cn(C)nc3C(F)F)c21
Observed efficacy (Pyrenophora teres; 0.25 ppm): 15

O=C(Nc1ccccc1F)c1ccc(-c2noc(C(F)(F)F)n2)cc1
Observed efficacy (Alternaria solani; 0.25 ppm): 0 | Observed efficacy (Sclerotinia sclerotiorum; 0.25 ppm): 0 | Observed efficacy (Sclerotinia sclerotiorum; 0.5 ppm): 0 | Observed efficacy (Sclerotinia sclerotiorum; 4 ppm): 10

COC(=O)C(O)(Cn1cncn1)c1ccc(Oc2ccc(Cl)cc2)cc1Cl (centres unmarked)
Observed efficacy ([1]; 0.008 ppm): 13 | Observed efficacy ([1]; […]): 26 | Observed efficacy (Alternaria solani; 0.016 ppm): 8 | Observed efficacy (Alternaria solani; 0.125 ppm): 37 | Observed efficacy (Alternaria solani; […]): 30 | Observed efficacy (Sclerotinia sclerotiorum; 0.008 ppm): 0 | Observed efficacy (Sclerotinia sclerotiorum; 0.25 ppm): 5 | Observed efficacy (Sclerotinia sclerotiorum; 0.5 ppm): 3 | Observed efficacy (Sclerotinia sclerotiorum; 1 ppm): 16 | Observed efficacy (Cercospora zea maydis; 0.002 ppm): 11 | Observed efficacy (Cercospora zea maydis; 0.016 ppm): 30 | Observed efficacy (Cercospora sojina): 35 | Observed efficacy (Pyrenophora teres; 0.25 ppm): 0 | Observed efficacy (Pyrenophora teres; […]): 0

CC1CC(C)(C)c2c(F)ccc(NC(=O)c3cn(C)nc3C(F)F)c21 (racemic)
Observed efficacy (Alternaria solani; 0.25 ppm): 37

S1SSSSSSS1
Observed efficacy (Alternaria solani; 0.25 ppm): 0 | Observed efficacy (Sclerotinia sclerotiorum; 0.5 ppm): 3 | Observed efficacy (Sclerotinia sclerotiorum; 1 ppm): 0 | Observed efficacy (Cercospora zea maydis; […]): 0

COc1ccnc(C(=O)N[C@@H](C)C(=O)O[C@@H](C)C(c2ccc(F)cc2)c2ccc(F)cc2)c1OC(C)=O
Observed efficacy (Pyrenophora teres; 0.25 ppm): 36

CC(O)(Cn1cncn1)c1ccc(Oc2ccc(Cl)cc2)cc1C(F)(F)F (racemic)
Observed efficacy (Alternaria solani; 0.032 ppm): 48

N#Cc1c[nH]cc1-c1cccc2c1OC(F)(F)O2
Observed efficacy ([1]; 0.016 ppm): 57 | Observed efficacy (Pyrenophora teres; 0.032 ppm): 5 | Observed efficacy (Pyrenophora teres; […]): 25
